Results of unrelated studies side by side (data: NIAID ChemDB).

Shared fields: tests in culture; organism: Mycobacterium tuberculosis

Two numbers with a dash give a range or band. Neighbouring rows are from separate reports. MIC50, MIC90 and the like: level of inhibition, or share of isolates inhibited. Percent inhibition refers to the dose given; in toxicity tests it is the harm to the cells. Blank or dashed fields: not listed here. ECn: concentration that inhibits the pathogen or its effect by n%. MIC bound comes from a single tested concentration.

| SMILES | dose | changes | endpoint | read by | strain | value |
|---|---|---|---|---|---|---|
| Nc1cccc2nc(-c3cc4cccc([N+](=O)[O-])c4oc3=O)cn12 | - | - | MIC | BACTEC | H37Rv | >6.25 µg/mL |
| C=C(C)/C=C/[C@]12C[C@H](C)[C@H]3CC[C@](C)(NC=O)[C@@H](CC[C@H]1C)[C@@H]32 | 128 µg/mL | - | inhibition | - | H37Rv | 99% |
| CCOc1ccc(/C=N/NC(=O)c2ccccc2NC(=O)C2CC2)cc1OC | - | - | MIC bound | BACTEC | H37Rv | >12.5 µg/mL |
| NC(=O)c1cnccn1 | - | - | MIC | - | W478 | 15 µg/mL |
| Cn1nc(-c2ccccc2)c(C(=O)/C=C/c2ccc(Cl)cc2)c(N2CCCC2)c1=O | 12.5 µg/mL | - | inhibition | BACTEC | H37Rv | 61% |
| c1cc2c(N3CCOCC3)cc(N3CCOCC3)nc2nc1N1CCCCC1 | 6.25 µg/mL | - | inhibition | BACTEC | H37Rv | 0% |
| CCOC(=O)C1=CNc2c(C#N)cnn2C12C(=O)Oc1ccc(OC)cc12 | - | - | MIC bound | BACTEC | H37Rv | >12.5 µg/mL |
| COc1cc(/C=N/NC(=O)c2ccc(F)cc2)ccc1O | - | - | MIC | - | H37Rv | >6.25 µg/mL |
| CCOC(=O)Nc1cc(N)c([N+](=O)[O-])c(NC(C)C(=O)c2ccccc2)n1 | - | - | EC50 | - | H37Rv | >12.5 µg/mL |
| O=c1[nH]c2nc(N3CCNCC3)ccc2cc1-c1ccccc1 | - | - | EC50 | BACTEC | H37Rv | >6.25 µg/mL |
| CN(C)C1C(=O)C(C(N)=O)=C(O)C2(O)C(=O)C3=C(O)c4c(O)cccc4C(C)(O)C3CC12 | - | - | MIC bound | BACTEC | H37Rv | >12.5 µg/mL |
| CC[C@H]1OC(=O)[C@H](C)[C@@H](O[C@H]2C[C@@](C)(OC)[C@@H](O)[C@H](C)O2)[C@H](C)[C@@H](O[C@@H]2O[C@H](C)C[C@H](N(C)C)[C@H]2O)[C@](C)(OC)C[C@@H](C)C(=O)[C@H](C)[C@@H](O)[C@]1(C)O | - | - | MIC | - | 50194 | >4 µg/mL |
| Clc1nc(Sc2ccc3ccccc3n2)c2[nH]cnc2n1.O | - | - | MIC | - | H37Ra | >12.8 µg/mL |
| COc1ccc2cc1-c1cc(ccc1O)C[C@@H]1NCCc3cc4c(cc31)Oc1c(c(OC)cc3c1[C@H](C2)N(C)CC3)O4 | - | - | MIC | resazurin | H37Rv-PAS-R ATCC 35821 | 1.5 µg/mL |
| COc1ccccc1Sc1nc(Cl)nc2nc[nH]c12 | - | - | MIC90 | - | H37Rv | >6.25 µg/mL |
| COc1cccc2c1C(=O)c1c(O)c3c(c(O)c1C2=O)C[C@@](O)(/C(C)=N/NC(=O)c1cccc([N+](=O)[O-])c1)C[C@H]3O[C@H]1CC(N)[C@H](O)[C@H](C)O1 | - | - | MIC | - | INH-r | 12.5 µg/mL |
| O=C(N/N=C/c1ccccc1O)c1ccc(F)cc1 | - | - | MIC | - | H37Rv | >6.25 µg/mL |
| Cc1ccc2c(c1)C(=O)c1nc3ccccc3c(=O)n1-2 | - | - | MIC | - | H37Rv | 0.5 µg/mL |
| Cc1onc(-c2ccccc2)c1C(C)(O)c1ccccc1 | - | - | MIC bound | - | H37Rv | >6.25 µg/mL |
| O=c1nc(SCc2cccc(Br)c2)c2[nH]cnc2[nH]1 | 6.25 µg/mL | - | inhibition | - | H37Rv | 32% |
| Fc1ccccc1-n1ncc(C(c2ccccc2)n2ccnc2)c1-c1ccccc1 | - | - | MIC50 | - | ATCC 35837 (ethambutol-resistant) | ≥100 µM |
| CC(=O)NC[C@H]1CN(c2ccc(N3CCN(c4ccc([N+](=O)[O-])s4)CC3)c(F)c2)C(=O)O1 | - | - | MIC | - | ATCC | ≤0.125 µg/mL |
| O=C(N/N=C/c1ccc(Cl)c(Cl)c1)c1ccncc1 | - | - | MIC | resazurin | H37Rv | 0.1 µg/mL |
| O=C1c2cc(OC(F)(F)F)ccc2-n2c1nc1ncccc1c2=O | - | - | MIC | - | H37Rv | 0.06 µg/mL |
| CNc1nc(NC)nc(NNC(=O)c2ccccc2)n1 | - | - | MIC bound | BACTEC | H37Rv | >12.5 µg/mL |
| CCOC(=O)Nc1cc(N)c2[nH]c(=S)n(N)c2c1 | 12.5 µg/mL | - | inhibition | - | H37Rv | 0% |
| O=C1c2ccccc2-n2c1nc1ccc(O)cc1c2=O | - | - | MIC | - | H37Rv | >8 µg/mL |
| CCCCCCc1ccc(Oc2ccccc2)c(O)c1 | - | - | MIC99 | - | H37Rv pMH29:inhA | 18.8 µg/mL |
| CC(=O)c1c(O)c(C)c(O)c2c1OC1=CC(=O)C(C(C)=O)C(=O)[C@@]12C | - | - | MIC | BACTEC | H37Rv | 32 µg/mL |
| Cc1c(N2C[C@@H](N)C3(CC3)C2)c(F)cc2c(=O)c(C(=O)O)cn([C@@H]3C[C@@H]3F)c12 | - | - | MIC | - | 43 (RFP-susceptible) | 0.1 µg/mL |
| O=C(NCCO)C(=O)N/N=C/c1ccc([N+](=O)[O-])o1 | - | - | MIC | - | EMB-R | 12.5 µg/mL |
| CCOC(=O)Nc1cc(NCCc2ccc(S(=O)(=O)N(CC)CC)cc2)c2ncc(-c3ccc(Cl)cc3)nc2n1 | - | - | EC50 | - | H37Rv | >12.5 µg/mL |
| CC(C)c1ccc(/C=C2/CSCC3=C2NC(=S)NC3c2ccc(C(C)C)cc2)cc1 | 12.5 µg/mL | - | inhibition | BACTEC | H37Rv | 0% |
| CCOC(=O)Nc1cc2ncc(CN(C)c3ccccc3)nc2c(N)n1 | - | - | EC50 | - | H37Rv | <12.5 µg/mL |
| CCCCCC/C=C/c1ccc2c(c1)C(=O)c1nc3ccncc3c(=O)n1-2 | - | - | MIC | - | H37Rv | 0.06 µg/mL |
| CC[C@H](CC[C@@H](C)[C@H]1CC[C@H]2[C@@H]3CC=C4C[C@@H](O[C@@H]5O[C@H](CO)[C@@H](O)[C@H](O)[C@H]5O)CC[C@]4(C)[C@H]3CC[C@]12C)C(C)C | 12.5 µg/mL | - | inhibition | BACTEC | H37Rv | -13% |
| c1ccc(-c2c(C(c3ccccc3)n3ccnc3)cnn2-c2ccccc2)cc1 | - | - | MIC90 | - | ATCC 27294 | >100 µM |
| Cn1c2ccc3cc2c(=S)c2cc(ccc21)OCCOCCOCCOCCOCCO3 | 6.25 µg/mL | - | inhibition | resazurin | H37Rv | 15% |
| COc1cccc2c(=O)n3c(nc12)C(=O)c1cc(F)ccc1-3 | - | - | MIC | - | H37Rv | 0.06 µg/mL |
| Nc1ccc2c(N3CCOCC3)cc(N3CCOCC3)nc2n1 | - | - | EC50 | BACTEC | H37Rv | >6.25 µg/mL |
| Clc1ccc(-c2c(C(c3ccccc3)n3ccnc3)cnn2-c2ccc(Cl)cc2)cc1 | - | - | MIC90 | - | ATCC 35837 (ethambutol-resistant) | ≥100 µM |
| CC1=NN(C(=O)c2cc(Cl)cc([N+](=O)[O-])c2)C(=O)C1N=Nc1ccccc1C(=O)O | - | - | MIC bound | BACTEC | H37Rv | >12.5 µg/mL |
| O=C1c2cc(I)ccc2-n2c1nc1ncccc1c2=O | - | - | MIC | - | TN913RFLP:C (DRUG sensitive) | 0.06 µg/mL |
| CO[C@H]1/C=C/O[C@@]2(C)Oc3c(C)c(O)c4c(O)c(c(/C=N/N5CCN(C)CC5)c(O)c4c3C2=O)NC(=O)/C(C)=C\C=C\[C@H](C)[C@H](O)[C@@H](C)[C@@H](O)[C@@H](C)[C@H](OC(C)=O)[C@@H]1C | - | - | MIC | - | 38396 | <2 µg/mL |
| Clc1ccc(-n2ncc(C(c3ccccc3)n3ccnc3)c2-c2ccccc2Cl)c(Cl)c1 | - | - | MIC50 | - | ATCC 35837 (ethambutol-resistant) | 36.2 µM |
| COc1ccc(OC)c(Sc2ccncc2)c1 | - | - | MIC | - | H37Ra | >12.8 µg/mL |
| CCOC(=O)Nc1cc(N)c2c(n1)OCC(c1ccc(OC)cc1)=N2 | - | - | EC50 | - | H37Rv | >12.5 µg/mL |
| O=C(N=Nc1c(O)[nH]c2ccccc12)c1ccc(F)cc1 | - | - | MIC | - | H37Rv | >6.25 µg/mL |
| CO[C@H]1/C=C/O[C@@]2(C)Oc3c(C)c(O)c4c(O)c(c(/C=N/N5CCN(C)CC5)c(O)c4c3C2=O)NC(=O)/C(C)=C\C=C\[C@H](C)[C@H](O)[C@@H](C)[C@@H](O)[C@@H](C)[C@H](OC(C)=O)[C@@H]1C | - | - | MIC | resazurin | RifR | 50–100 µg/mL |
| CCOC(=O)Nc1cc(NC(C)C(=O)c2ccccc2)c([N+](=O)[O-])cn1 | 12.5 µg/mL | - | inhibition | - | H37Rv | 0% |
| CO[C@H]1/C=C/O[C@@]2(C)Oc3c(C)c(O)c4c(O)c(c(/C=N/N5CCN(C)CC5)c(O)c4c3C2=O)NC(=O)/C(C)=C\C=C\[C@H](C)[C@H](O)[C@@H](C)[C@@H](O)[C@@H](C)[C@H](OC(C)=O)[C@@H]1C | - | 516Phe | MIC99 | - | - | >640 µg/mL |
| COc1ccc2cc1-c1cc(cc(Br)c1O)C[C@H]1c3cc4c(cc3CCN1C)Oc1c(OC)cc3c(c1O4)[C@H](C2)N(C)CC3 | - | - | MIC | resazurin | H37Rv-[AS-R ATCC 35821 | 1.5 µg/mL |
| Nc1ccn([C@@H]2O[C@H](C(O[C@@H]3O[C@H](CO)[C@@H](O)[C@H](N)[C@H]3O)[C@@H](O)[C@@H](O)[C@@H](O)[C@@H](O)CO)[C@@H](N)[C@H](O)[C@H]2O)c(=O)n1 | - | - | MIC | - | PAS-R | 12.5 µg/mL |
| Cc1ccn2cc(-c3cc4ccccc4oc3=O)nc2c1 | - | - | MIC | BACTEC | H37Rv | >6.25 µg/mL |
| CC1COc2c(N3CCN(C)CC3)c(F)cc3c(=O)c(C(=O)O)cn1c23 | - | - | MIC90 | - | ATCC 35820 (streptomycin-resistant) | 2.1 µM |
| O=c1ccc2c(N3CCOCC3)cc(N3CCOCC3)nc2[nH]1 | - | - | EC50 | BACTEC | H37Rv | >6.25 µg/mL |
| CO[C@H]1/C=C/O[C@@]2(C)Oc3c(C)c(O)c4c(=O)c(c5oc6cc(N7CCN(CC(C)C)CC7)cc(=O)c6nc5c4c3=C2O)NC(=O)/C(C)=C\C=C\[C@H](C)[C@H](O)[C@@H](C)[C@@H](O)[C@@H](C)[C@H](OC(C)=O)[C@@H]1C | - | - | MIC | - | TBH1-7 (rifampin-susceptible) | <0.01 µg/mL |
| CCC1CN(c2c(F)cc3c(=O)c(C(=O)O)cn([C@@H]4C[C@@H]4F)c3c2OC)CCN1 | - | - | MIC | - | 71 (RFP-resistant) | 1 µg/mL |
| CCCCCCCCCCCCCCCCOc1ccc(S(=O)(=O)Nc2cc(C(=O)OC)cc(C(=O)OC)c2)cc1N | - | - | MIC bound | BACTEC | H37Rv | >12.5 µg/mL |
| Cc1ccccc1Sc1ncnc2nc[nH]c12 | 6.25 µg/mL | - | inhibition | - | H37Rv | 36% |
| O=c1oc2c(Br)cc(Br)cc2cc1-c1cn2ccccc2n1 | 6.25 µg/mL | - | inhibition | BACTEC | H37Rv | 7% |
| N/C(COc1cccc(Cl)c1)=N/NC(=O)c1ccncc1 | - | - | MIC | - | ATCC 35822 (isoniazid-resistant) | 12.5 µg/mL |
| Cc1ccn2cc(-c3cc4cc(Br)ccc4oc3=O)nc2c1 | - | - | MIC | BACTEC | H37Rv | >6.25 µg/mL |
| Cc1cccc(CSc2ccncc2)c1 | 6.25 µg/mL | - | inhibition | - | H37Rv | 8% |
| COc1cc2c3cc1OCc1c(O)c(OC)cc4c1[C@H](Cc1ccc(cc1)Oc1cc(ccc1O)C[C@H]3N(C)CC2)N(C)CC4 | - | - | MIC bound | BACTEC | H37Rv | >12.8 µg/mL |
| Clc1ccccc1-c1c(C(c2ccccc2)n2ccnc2)cnn1-c1ccccc1 | - | - | MIC90 | - | ATCC 35837 (ethambutol-resistant) | >100 µM |
| Cc1c(N2CC3CCCNC3C2)c(F)cc2c(=O)c(C(=O)O)cn([C@@H]3C[C@@H]3F)c12 | - | - | MIC | - | 50 (RFP-resistant) | 0.025 µg/mL |
| COc1cccc(CSc2nc(=O)[nH]c3nc[nH]c23)c1 | - | - | MIC | - | H37Ra | 16 µg/mL |
| Cc1ccc2c(Cl)c(C)c(Cl)nc2n1 | 6.25 µg/mL | - | inhibition | BACTEC | H37Rv | 1% |
| CC(=O)O[C@H]1C(=O)[C@@]2(C)[C@H]([C@H](OC(=O)c3ccccc3)[C@@]3(O)C[C@H](O)C(C)=C1C3(C)C)[C@]1(OC(C)=O)CO[C@@H]1C[C@@H]2O | - | - | MIC bound | BACTEC | H37Rv | >12.5 µg/mL |
| N/C(COc1ccc(Cl)cc1)=N/NC(=O)c1ccncc1 | - | - | MIC | - | ATCC 35838 (rifampin-resistant) | 3.12 µg/mL |
| Clc1ccc(-c2c(C(c3ccccc3)n3ccnc3)cnn2-c2ccccc2)cc1 | - | - | MIC90 | - | ATCC 35828 (pyrazinamide-resistant) | ≥100 µM |
| O=C(N/N=C/c1ccc(Br)s1)c1ccc(F)cc1 | - | - | MIC | - | H37Rv | <6.25 µg/mL |
| NC(=O)c1nc([C@@H]2O[C@H](CO)[C@@H](O)[C@H]2O)cs1 | - | - | MIC bound | BACTEC | H37Rv | >12.5 µg/mL |
| Fc1ccc(-n2ncc(C(c3ccccc3)n3ccnc3)c2-c2ccccc2)cc1 | - | - | MIC50 | - | ATCC 35822 (isoniazid-resistant) | ≥100 µM |
| Cc1ccc(OC/C(N)=N\NC(=O)c2ccncc2)cc1 | - | - | MIC | - | ATCC 35822 (isoniazid-resistant) | 50 µg/mL |
| COc1cccc2c(=O)n3c(nc12)C(=O)c1cc(S(=O)(=O)N2CCN(C)CC2)ccc1-3 | - | - | MIC | - | H37Rv | 2 µg/mL |
| Cc1cccc(Sc2ncccn2)c1 | - | - | MIC90 | - | H37Rv | >6.25 µg/mL |
| NNC(=O)c1ccncc1 | - | - | MIC99 | - | HN335 | 0.03 µg/mL |
| COC(O)C1OC(c2ccccc2)OC2C(CO)OC(c3ccccc3)OC12 | - | - | MIC bound | BACTEC | H37Rv | >12.5 µg/mL |
| Clc1ccc(-n2ncc(C(c3ccccc3)n3ccnc3)c2-c2ccccc2)c(Cl)c1 | - | - | MIC90 | - | ATCC 35837 (ethambutol-resistant) | >100 µM |